In PMC11323498:

Target: MoCrn1 (protein of the pull-down and MST assays) (Magnaporthe oryzae)
Experiment: MST
Details: natural protein

## MoRgs3 (protein of the MST assay)
  Kd: 7.9 µM
